Measurements reported in paper PMC7111291 (European Journal of Medicinal Chemistry, 2020).

Tested on: VSVG/HIV-1RT-K103N,Y181C
Format: cell-based

Structure (SMILES): O=C1Nc2ccc(Cl)cc2[C@@](C#CC2CC2)(C(F)(F)F)O1 [EFV, efavirenz]
- Mean change (fold) in EC50 compared to wild type: 0.05 ± 0.003 (50.2) fold
